The source of these data is PMC4696656, “Insights into the Mechanism of Action of Bactericidal Lipophosphonoxins” (PLoS ONE, 2015).

Entries after “also recorded” stand apart in the source; their conditions may differ. Some results are limits rather than exact numbers.

The subject of this data set is B. subtilis. The experiment in a line: Localization of LPPOs within bacterial cells (fractionation, HPLC-MS). The following applies: HPLC-MS of cell fractions. In kind it is cell-based, Bacillus subtilis.

Regarding `CCCCCCCCCCCCCCCCOP(=O)(CCN1C[C@@H](O)[C@H](O)C1)OC[C@H]1O[C@@H](n2ccc(=O)[nH]c2=O)[C@H](O)[C@@H]1O` (some centres unmarked) [DR5026], the “potential metabolites detected (monoacetylated compound)” value was “only intact DR5026 was detected; also recorded: No detectable amounts of potential metabolites were found”. In the case of `CCCCCCCCCCCCCCCCOCCCOP(=O)(CCN1C[C@@H](O)[C@H](O)C1)OC[C@H]1O[C@@H](n2ccc(=O)[nH]c2=O)[C@H](O)[C@@H]1O` (some centres unmarked) [DR5047], the “potential metabolites detected (monoacetylated compound)” value is less than 5%.
